This passage reports EC50 results from US20210324051A1 (published 2021).

This test concerns the target T1, Ravn strain cleaved MARV GP ectodomain (Marburg virus, Ravn strain, UniProt Q1PDC7 19-648).
T1 chain: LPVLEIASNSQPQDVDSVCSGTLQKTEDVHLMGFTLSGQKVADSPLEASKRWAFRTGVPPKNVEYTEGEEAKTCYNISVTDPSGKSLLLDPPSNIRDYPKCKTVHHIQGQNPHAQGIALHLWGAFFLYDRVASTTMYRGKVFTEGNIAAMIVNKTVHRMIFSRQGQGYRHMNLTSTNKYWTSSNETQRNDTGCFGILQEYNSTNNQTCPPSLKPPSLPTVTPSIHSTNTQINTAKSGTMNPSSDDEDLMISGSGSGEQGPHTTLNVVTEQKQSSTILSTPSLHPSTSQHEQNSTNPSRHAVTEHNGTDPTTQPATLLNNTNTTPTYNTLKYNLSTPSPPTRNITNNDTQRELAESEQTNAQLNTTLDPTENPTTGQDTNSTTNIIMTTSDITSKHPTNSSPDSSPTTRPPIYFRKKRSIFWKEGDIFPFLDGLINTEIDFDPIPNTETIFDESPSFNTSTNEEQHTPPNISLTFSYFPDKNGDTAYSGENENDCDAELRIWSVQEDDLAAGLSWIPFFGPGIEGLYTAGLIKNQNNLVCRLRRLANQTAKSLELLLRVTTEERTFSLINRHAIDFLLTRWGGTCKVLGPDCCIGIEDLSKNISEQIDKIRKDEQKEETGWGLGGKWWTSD

B1: MR198 human monoclonal antibody (antibody)
chain 1: QVQLQESGPGLVKPSQTLSLSCTVSGGSISSDSYYWNWIRQHPGKGLEWIGYVYYSGSTNYNPSLKSRVIISLDTSKNQFSLKLNSVTAADTAVYYCARADYYGSGSFFYYYHMDVWGKG
chain 2: DIQMTQSPSTLSASVGDRVTITCRASQSIYTWLAWYQQKPGKAPKLLIHKSSSLESGVPSRFSGSGSGTEFTLTISSLQPDDFATYYCHQYYVYPCTSA
As usually defined, the EC50 is the concentration giving half of the maximal effect. Read a high EC50 as a less potent agent. In turn, B1 displayed an EC50 of 0.8 µg/mL.
